Tests used:
Assay in all cases: SPR
[1] = molecular target: wild Bactrian camel ACE2 ectodomain fused with mouse Fc (wild Bactrian camel)
[2] = molecular target: SARS-CoV receptor binding domain (RBD), His-tagged (SARS-CoV) (UniProt P59594); conditions: Fc fusion
[3] = molecular target: SARS-CoV-2 receptor binding domain (RBD), His-tagged (SARS-CoV-2) (UniProt P0DTC2); conditions: Fc fusion

| Substance | fold higher affinity than SARS-CoV-2 RBD to the same ACE2 [1] [fold] | Kd [2] [nM] | Kd [3] [nM] |
| --- | --- | --- | --- |
| SARS-CoV receptor binding domain (RBD), His-tagged (from UniProt P59594 306-527) (domain or fragment) | 4 | – | – |
| civet ACE2 ectodomain fused with mouse Fc (from UniProt Q56NL1 18-740) | – | 121 | – |
| little brown bat ACE2 ectodomain fused with mouse Fc | – | 12400 | – |
| fox ACE2 ectodomain fused with mouse Fc | – | 17.9 | – |
| Malayan pangolin ACE2 ectodomain fused with mouse Fc | – | 227 | 66.8 |
